This note sets out measurements from patent US11331369B2, “Endoparasitic depsipeptides” (Zoetis Services LLC, priority 2017, dated 2022).

The subject of the experiment is 4th stage larvae (L4) of Dirofilaria immitis. The experiment is described as follows: Dirofilaria immitis, L4 Stage (DiL4) In Vitro Assay. The format is cell-based. The conditions noted are these: ratio of DiMF MED to DiL4 MED.

As for `CC(C)C[C@H]1C(=O)O[C@H](Cc2ccc(N3CCOCC3)cc2)C(=O)N(C)[C@@H](CC(C)C)C(=O)O[C@H](C)C(=O)N(C)[C@@H](CC(C)C)C(=O)O[C@H](Cc2ccc(N3CCOCC3)cc2)C(=O)N(C)[C@@H](CC(C)C)C(=O)O[C@H](C)C(=O)N1C` [emodepside, reference compound], the selectivity ratio (DiMF/DiL4) turned out to be 1.
